Data published in ChEMBL document CHEMBL4765270, “Piperidine propionamide as a scaffold for potent sigma-1 receptor antagonists and mu opioid receptor agonists for treating neuropathic pain” (Eur J Med Chem, 2020).

Amino acid sequences for entries named in this document (tags omitted).
UniProt Q60492, whole entry: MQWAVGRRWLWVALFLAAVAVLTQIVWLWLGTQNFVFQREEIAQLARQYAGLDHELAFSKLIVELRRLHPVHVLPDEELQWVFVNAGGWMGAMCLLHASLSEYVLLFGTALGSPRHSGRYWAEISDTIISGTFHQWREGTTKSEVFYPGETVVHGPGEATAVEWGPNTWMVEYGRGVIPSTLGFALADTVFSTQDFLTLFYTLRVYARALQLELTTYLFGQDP

Target: Sigma non-opioid intracellular receptor 1 (Cavia porcellus, UniProt Q60492)
Experiment: Displacement of [3H]-(+)-pnetazocin from sigma1 receptor in guinea pig brain membrane incubated for 150 mins by liquid scintillation counting method
Assay type: cell membranes

CCC(=O)N(CCN1CCC(Cc2ccccc2)CC1)c1ccc(F)cc1
Ki: 4.1 nM
